Experimental data taken from US20180155411A1.

Biological target: VP4 of rotavirus strain WI61 (G9P[8]) (human rotavirus)
Assay: cell-based or functional assay

B1: mAb #47 (antibody, V domains shown)
VH: QVQLQESGPGLVKPSETLSLTCSVSGGSISVYYWNWIRQSPGKGLEWIASMYYTGITNYNPSLKSRVTMSVDMSKNQFSLKLSSVTAADTAVYYCARTMGIDQNNRGWPPAGYYFGMDVWGQGTTVTVSS
VL: DIVMTQSPLSLPVTPGEPASISCRSSQSLLHSNGNNYLDWYLQKPGQSPQLLIYLGSNRASGVPDRFSGSGSGTDFTLKISRVEAEDVGIYYCMQALEASLTFGGGTKVEIK
minimum neutralizing concentration: 78.1 ng/mL
